Anti-infective test results gathered from many reports (values: NIAID ChemDB through PubChem).

Common to all: tests in culture; organism: Mycobacterium avium complex

An empty or dashed field is not shown.

{"structure": "CO[C@H]1/C=C/O[C@@]2(C)Oc3c(C)c(O)c4c(O)c(c(/C=N/N5CCN(C)CC5)c(O)c4c3C2=O)NC(=O)/C(C)=C\\C=C\\[C@H](C)[C@H](O)[C@@H](C)[C@@H](O)[C@@H](C)[C@H](OC(C)=O)[C@@H]1C", "strain or isolate": "CIPT 140310002", "measure": "MIC", "result": "0.1 µg/mL"}
{"structure": "C[C@@H]1CN(c2c(F)c(N)c3c(=O)c(C(=O)O)cn(C4CC4)c3c2F)C[C@H](C)N1", "strain or isolate": "101", "measure": "MIC", "result": "0.25 µg/mL"}
{"structure": "Cc1c(CN2CCN(C)CC2)cc(-c2ccc(Cl)cc2)n1Cc1ccccc1", "strain or isolate": "103317", "measure": "MIC", "result": "8 µg/mL"}
{"structure": "CCCCCCCCOC1OC(C)C(O[C@@H]2O[C@@H]([C@H](O)CO)[C@H](O)[C@H]2O)C(O)C1O", "strain or isolate": "NJ3404", "measure": "MIC", "result": ">128 µg/mL"}
{"structure": "CC[C@H]1OC(=O)[C@H](C)[C@@H](O[C@H]2C[C@@](C)(OC)[C@@H](O)[C@H](C)O2)[C@H](C)[C@@H](O[C@@H]2O[C@H](C)C[C@H](N(C)C)[C@H]2O)[C@](C)(OC)C[C@@H](C)C(=O)[C@H](C)[C@@H](O)[C@]1(C)O", "strain or isolate": "20 strains", "measure": "MIC90", "result": "25 µg/mL"}
{"structure": "CCSCCC(N)C(=O)O", "strain or isolate": "TMC1463 (serovar 4)", "measure": "MIC", "result": ">100 µg/mL"}
{"structure": "CC[C@H]1OC(=O)[C@H](C)[C@@H](O[C@H]2C[C@@](C)(OC)[C@@H](O)[C@H](C)O2)[C@H](C)[C@@H](O[C@@H]2O[C@H](C)C[C@H](N(C)C)[C@H]2O)[C@](C)(OC)C[C@@H](C)C(=O)[C@H](C)[C@@H](O)[C@]1(C)O", "strain or isolate": "37 strains", "measure": "MIC90", "result": "2 µg/mL"}
{"structure": "CCCCCCn1c(C)cc(CN2CCOCC2)c1C", "strain or isolate": "103317", "measure": "MIC", "result": ">64 µg/mL"}
{"structure": "CCn1cc(C(=O)O)c(=O)c2cc(F)c(N3CCNCC3)cc21", "measure": "MIC50", "result": "16 µg/mL"}
{"structure": "CO[C@H]1/C=C/O[C@@]2(C)Oc3c(C)c(O)c4c(O)c(c5c(c4c3C2=O)NC2(CCN(CC(C)C)CC2)N=5)=NC(=O)/C(C)=C\\C=C\\[C@H](C)[C@H](O)[C@@H](C)[C@@H](O)[C@@H](C)[C@H](OC(C)=O)[C@@H]1C", "strain or isolate": "37 strains", "measure": "MIC90", "result": "0.5 µg/mL"}
{"structure": "CN[C@@H]1[C@H](O[C@H]2[C@H](O[C@H]3[C@H](O)[C@@H](O)[C@H](N=C(N)N)[C@@H](O)[C@@H]3N=C(N)N)O[C@@H](C)[C@]2(O)C=O)O[C@@H](CO)[C@H](O)[C@H]1O", "strain or isolate": "101", "measure": "MIC", "result": "16 µg/mL"}
{"structure": "CO[C@H]1/C=C/O[C@@]2(C)Oc3c(C)c(O)c4c(O)c(c(/C=N/N5CCN(C/C=C/c6ccccc6)CC5)c(O)c4c3C2=O)NC(=O)/C(C)=C\\C=C\\[C@H](C)[C@H](O)[C@@H](C)[C@@H](O)[C@@H](C)[C@H](OC(C)=O)[C@@H]1C", "strain or isolate": "PLR3", "measure": "MIC", "result": "0.03 µg/mL"}
{"structure": "NCC[C@H](O)C(=O)N[C@@H]1C[C@H](N)[C@@H](O[C@H]2O[C@H](CN)[C@@H](O)[C@H](O)[C@H]2O)[C@H](O)[C@H]1O[C@H]1O[C@H](CO)[C@@H](O)[C@H](N)[C@H]1O", "strain or isolate": "101", "measure": "MBC", "result": "2 µg/mL"}
{"structure": "C[C@H]1COc2c(N3CCN(C)CC3)c(F)cc3c(=O)c(C(=O)O)cn1c23", "strain or isolate": "20 strains", "measure": "MIC50", "result": "6.25 µg/mL"}
{"structure": "NC[C@H]1O[C@H](O[C@H]2[C@H](O)[C@@H](O[C@H]3O[C@H](CO)[C@@H](O)[C@H](N)[C@H]3O)[C@H](N)C[C@@H]2N)[C@H](N)C[C@@H]1O", "strain or isolate": "101", "measure": "MIC", "result": ">64 µg/mL"}
{"structure": "C[C@@H](O)[C@H]1C(=O)N2C(C(=O)O)=C(SCCOC(N)=O)S[C@H]12", "strain or isolate": "22 strains", "measure": "MIC50", "result": "2 µg/mL"}
{"structure": "CC1CN(c2cc3c(cc2F)c(=O)c(C(=O)O)cn3-c2ccc(F)cc2F)CCN1", "strain or isolate": "3214", "measure": "MIC", "result": "8 µg/mL"}
{"structure": "NC(=O)c1cnccn1", "strain or isolate": "101", "measure": "MIC", "result": ">64 µg/mL"}
{"structure": "CO[C@H]1/C=C/O[C@@]2(C)Oc3c(C)c(O)c4c(O)c(c(/C=N/N5CCN(C6CCCC6)CC5)c(O)c4c3C2=O)NC(=O)/C(C)=C\\C=C\\[C@H](C)[C@H](O)[C@@H](C)[C@@H](O)[C@@H](C)[C@H](OC(C)=O)[C@@H]1C", "strain or isolate": "101", "measure": "MIC", "result": "4 µg/mL"}
{"structure": "CC[C@@H](CO)NCCN[C@@H](CC)CO", "strain or isolate": "3342-4", "measure": "MIC", "result": "3.8 µg/mL"}
{"structure": "CO[C@H]1/C=C/O[C@@]2(C)Oc3c(C)c(O)c4c(O)c(c(/C=N/N5CCN(C)CC5)c(O)c4c3C2=O)NC(=O)/C(C)=C\\C=C\\[C@H](C)[C@H](O)[C@@H](C)[C@@H](O)[C@@H](C)[C@H](OC(C)=O)[C@@H]1C", "strain or isolate": "3215", "measure": "MIC", "result": "2 µg/mL"}
{"structure": "CC(C)N=c1cc2n(-c3ccc(Cl)cc3)c3ccccc3nc-2cc1Nc1ccc(Cl)cc1", "strain or isolate": "37 strains", "measure": "MIC90", "result": "8 µg/mL"}
{"structure": "CCCCCCn1c(C)c(CN2CCOCC2)c(CN2CCOCC2)c1-c1ccc(Cl)cc1", "strain or isolate": "103317", "measure": "MIC", "result": ">64 µg/mL"}
{"structure": "Cc1noc(NS(=O)(=O)c2ccc(N)cc2)c1C", "strain or isolate": "20 strains", "measure": "MIC90", "result": "20 µg/mL"}
{"structure": "CC[C@H](C)N1CCN(c2cc(=O)c3nc4c(oc3c2)c2c(=O)c3c(O)c(C)c5c(c34)=C(O)[C@@](C)(O/C=C/[C@H](OC)[C@@H](C)[C@@H](OC(C)=O)[C@H](C)[C@H](O)[C@H](C)[C@@H](O)[C@@H](C)/C=C/C=C(/C)C(=O)N2)O5)CC1", "strain or isolate": "18 strains", "measure": "MIC50", "result": "0.1 µg/mL"}
{"structure": "OC1O[C@H](CF)[C@@H](O)[C@H](O)[C@H]1O", "strain or isolate": "TMC1463 (serovar 4)", "measure": "MIC", "result": ">500 µg/mL"}
{"structure": "CCN(CC)c1nc2c(s1)c1c(O)c3c(O)c(C)c4c(c32)C(=O)[C@@](C)(O/C=C/[C@H](OC)[C@@H](C)[C@@H](OC(C)=O)[C@H](C)[C@H](O)[C@H](C)[C@@H](O)[C@@H](C)/C=C/C=C(/C)C(=O)N1)O4", "strain or isolate": "Isolate A", "measure": "MIC", "result": "0.03 µg/mL"}
{"structure": "CCC(C)N1CCN(c2cc(=O)c3nc4c(oc3c2)c2c(=O)c3c(O)c(C)c5c(c34)=C(O)[C@@](C)(O/C=C/[C@H](OC)[C@@H](C)[C@@H](OC(C)=O)[C@H](C)[C@H](O)[C@H](C)[C@@H](O)[C@@H](C)/C=C/C=C(/C)C(=O)N2)O5)CC1", "strain or isolate": "18 strains", "measure": "MIC50", "result": "0.1 µg/mL"}
{"structure": "CCCCCCn1c(C)c(CN2CCN(C)CC2)c(CN2CCN(C)CC2)c1-c1ccc(Cl)cc1", "strain or isolate": "103317", "measure": "MIC", "result": ">64 µg/mL"}
{"structure": "Cc1c(N2C[C@@H](N)C3(CC3)C2)c(F)c(N)c2c(=O)c(C(=O)O)cn(C3CC3)c12", "strain or isolate": "20 strains", "measure": "MIC50", "result": "6.25 µg/mL"}
{"structure": "CNn1cc(C(=O)O)c(=O)c2cc(F)c(N3CCN(C)CC3)cc21", "strain or isolate": "22 strains", "measure": "MIC90", "result": "16 µg/mL"}
{"structure": "Cc1c(CN2CCOCC2)cc(-c2ccc(Cl)cc2)n1C1CCCCC1", "strain or isolate": "103317", "measure": "MIC", "result": ">64 µg/mL"}
{"structure": "CCc1cc(C(N)=S)ccn1", "strain or isolate": "Isolate A", "measure": "MIC", "result": "4 µg/mL"}
{"structure": "CC(C)N=c1cc2n(-c3ccc(Cl)cc3)c3ccccc3nc-2cc1Nc1ccc(Cl)cc1", "read by": "agar", "strain or isolate": "14 strains", "measure": "EC50", "result": "<1 µg/mL"}

Repeating the first 2 entries:

structure	read by	strain or isolate	measure	result
CO[C@H]1/C=C/O[C@@]2(C)Oc3c(C)c(O)c4c(O)c(c(/C=N/N5CCN(C)CC5)c(O)c4c3C2=O)NC(=O)/C(C)=C\C=C\[C@H](C)[C@H](O)[C@@H](C)[C@@H](O)[C@@H](C)[C@H](OC(C)=O)[C@@H]1C		CIPT 140310002	MIC	0.1 µg/mL
C[C@@H]1CN(c2c(F)c(N)c3c(=O)c(C(=O)O)cn(C4CC4)c3c2F)C[C@H](C)N1		101	MIC	0.25 µg/mL

ECn is the concentration giving n% inhibition of infection, replication or growth. A number after MIC or MFC names an inhibition level or a share of isolates. Conditions beyond the fields shown may differ between rows.